A mixed list of measured activities; the numbers were collected in NIAID ChemDB.

ICn: concentration for n% inhibition. ECn is the concentration giving n% inhibition of infection, replication or growth. A number after MIC or MFC names an inhibition level or a share of isolates. Blank or dashed fields: not listed here. Conditions beyond the fields shown may differ between rows. Percent inhibition refers to the dose given; in toxicity tests it is the harm to the cells.

compound,dose,agent,test,protein,cell line,strain,method,endpoint,value
Fc1ccc(N2CCN(c3cncc(-c4ccc(-c5ccccc5)c(F)c4)n3)CC2)cc1,10 µM,Cytomegalovirus,target,UL97 kinase,-,-,-,inhibition,>15%
O=S(=O)([O-])c1ccc(O)cc1,50 µg/mL,Adenovirus,culture,-,Human embryonic lung cells,TYPE 3,cytopathic effect,inhibition,0%
COc1ccccc1N1CCN(c2cncc(-c3ccc(F)c(Cl)c3)n2)CC1,10 µM,Cytomegalovirus,target,UL97 kinase,-,-,-,inhibition,>15%
O=S(=O)(O)c1cc(O)c2c(O)cc(S(=O)(=O)O)cc2c1,50 µg/mL,Herpes simplex virus,culture,-,Human amnion AV3 cells,-,cytopathic effect,inhibition,80%
Cc1nc(NCCCCNc2ccnc3cc(Cl)ccc23)nc(-c2ccccc2[N+](=O)[O-])c1C(=O)OC(C)C,-,Cryptococcus gattii,culture,-,-,ATCC 32608,-,MIC99,16 µg/mL
O=S(=O)([O-])c1cccc(O)c1,5 µg/mL,Adenovirus,culture,-,Human embryonic lung cells,TYPE 3,cytopathic effect,inhibition,0%
Fc1ccc(N2CCCCC2)c(NC(=S)c2ccncc2)c1,10 µM,-,host protein,AurA/TPX2,-,-,kinase activity,inhibition,-3%
Fc1ccc(N2CCN(c3cncc(-c4cccc(F)c4)n3)CC2)cc1,-,Cytomegalovirus,target,UL97 kinase,-,-,-,IC50,<100 µM
O=[N+]([O-])c1ccc(C=Nc2ccccc2O)cc1,-,Cryptococcus neoformans,culture,-,-,ATCC 28957,-,MIC99,5.7 µg/mL
Cc1cccc(-c2cncc(N3CCN(c4ccncc4)CC3)n2)c1,-,Cytomegalovirus,target,UL97 kinase,-,-,-,IC50,<10 µM
Cc1cc(-c2ccc(N=Nc3ccc4c(S(=O)(=O)O)cc(S(=O)(=O)O)c(N)c4c3O)c(C)c2)ccc1N=Nc1ccc2c(S(=O)(=O)O)cc(S(=O)(=O)O)c(N)c2c1O,50 µg/mL,Herpes simplex virus,culture,-,Human conjunctiva cells,-,cytopathic effect,inhibition,100%
CC(=O)c1ccc(N2CCN(c3cncc(-c4cccc(C)c4)n3)CC2)cc1,10 µM,Cytomegalovirus,target,UL97 kinase,-,-,-,inhibition,>15%
CC(=O)N[C@H]1[C@H]([C@H](O)[C@H](O)CO)OC(C(=O)O)=C[C@@H]1N=C(N)N,-,Influenza A virus,culture,-,MDCK,Influenza A/Beijing/32/92 (H3N2),visual reading,EC50,0.3 µM
CCOC(=O)c1cnc(NCCCCNc2ccnc3cc(Cl)ccc23)nc1C,-,Cryptococcus gattii,culture,-,-,547/OTTI-97-PI-10,-,MIC99,16 µg/mL
C=CCc1ccc(O)c(OC)c1,-,Candida tropicalis,culture,-,-,3079,turbidity,MIC90,485 µg/mL
Oc1ccccc1N=Cc1ccccc1,-,Cryptococcus neoformans,culture,-,-,96806,-,MIC99,5.7 µg/mL
CC(C)(C)c1ccc(-c2cncc(N3CCN(c4cnccn4)CC3)n2)cc1,-,Cytomegalovirus,target,UL97 kinase,-,-,-,IC50,<100 µM
Nc1c(S(=O)(=O)O)cc2cc(S(=O)(=O)O)cc(O)c2c1O,10 µg/mL,Adenovirus,culture,-,Human amnion AV3 cells,TYPE 3,cytopathic effect,inhibition,23%
CCOC(=O)c1c(C)nc(OCCCNc2ccnc3cc(Cl)ccc23)nc1-c1ccccc1,-,Cryptococcus neoformans,culture,-,-,27JF,-,MIC99,4 µg/mL
O=S(=O)([O-])c1ccccc1S(=O)(=O)[O-],50 µg/mL,Rhinovirus,culture,-,Human embryonic lung cells,-,cytopathic effect,inhibition,0%
Oc1ccc(O)c(C=Nc2ccccc2O)c1,-,Cryptococcus neoformans,culture,-,-,5396,broth dilution,MIC,11.3 µg/mL
Nc1c(S(=O)(=O)[O-])cc2cc(S(=O)(=O)[O-])ccc2c1O,50 µg/mL,Herpes simplex virus,culture,-,Human amnion AV3 cells,-,cytopathic effect,inhibition,55%
CCOC(=O)c1c(C)nc(NCCCCNc2ccnc3cc(Cl)ccc23)nc1-c1ccc(F)cc1,-,Cryptococcus neoformans,culture,-,-,VM-MCMMPI,-,MIC99,8 µg/mL
CCOC(=O)c1ccc(OCCC2CCN(c3ccc(C)nn3)CC2)cc1,-,Rhinovirus,culture,-,KB,106F (LDL receptor group 30),neutral red,EC50,0.298 µM
O=C(O)c1cc(S(=O)(=O)[O-])ccc1O,5 µg/mL,Rhinovirus,culture,-,Human amnion AV3 cells,-,cytopathic effect,inhibition,0%

A second listing of 3 rows from above:

Nc1c(S(=O)(=O)[O-])cc2cc(S(=O)(=O)[O-])ccc2c1O ; dose: 50 µg/mL ; agent: Herpes simplex virus ; test: culture ; cell line: Human amnion AV3 cells ; method: cytopathic effect ; endpoint: inhibition ; value: 55%
O=S(=O)([O-])c1ccc(O)cc1 ; dose: 50 µg/mL ; agent: Adenovirus ; test: culture ; cell line: Human embryonic lung cells ; strain: TYPE 3 ; method: cytopathic effect ; endpoint: inhibition ; value: 0%
CC(=O)N[C@H]1[C@H]([C@H](O)[C@H](O)CO)OC(C(=O)O)=C[C@@H]1N=C(N)N ; agent: Influenza A virus ; test: culture ; cell line: MDCK ; strain: Influenza A/Beijing/32/92 (H3N2) ; method: visual reading ; endpoint: EC50 ; value: 0.3 µM